Measured values as given in US6399827B1, “Quaternary ammonium phosphate compound and method of preparing same” (SK Chemicals, priority 1997, dated 2002).

Legend:
Conditions in all cases: rate of corrosion from weight loss after 42 hours; test material 20 ppm, pH 8.5, 40° C., 15 ppm magnesium hardness, aerated, 150 rpm
[1] = Anticorrosive effect test, cast iron
[2] = Anticorrosive effect test, tinning steel plate
[3] = Anticorrosive effect test, carbon steel
[4] = Anticorrosive effect test, copper

In the case of CCCCCCCCCCCCCC[N+]1(Cc2ccccc2)CCOCC1.Cl.N.[Cl-] [B, 4-benzyl-4-tetradecyl morpholinium ammonium chloride], the “Anticorrosive effect (mpy) cast iron” value [1] is reported as 7.1 mpy, the “Anticorrosive effect (mpy) tinning steel” value [2] is reported as 0.7 mpy and the “Anticorrosive effect (mpy) carbon steel” value [3] is reported as 6.8 mpy. For the same compound, the “Anticorrosive effect (mpy) copper” value [4] was 0.4 mpy.

For O=P([O-])(O)O.[Na+] [D, sodium dihydrogen phosphate (NaH2PO4.12H2O)], the “Anticorrosive effect (mpy) cast iron” value [1] was 13.9 mpy, the “Anticorrosive effect (mpy) tinning steel” value [2] was 0.3 mpy and the “Anticorrosive effect (mpy) carbon steel” value [3] was 18.7 mpy. For the same compound, the “Anticorrosive effect (mpy) copper” value [4] was 0.1 mpy.

For CCCCCCCCCCCCCCCC[N+](C)(C)CCO.CCCCCCCCCCCCCCCC[N+](C)(C)CCO.CCCCCCCCCCCCCCCC[N+](C)(C)CCO.O=P([O-])([O-])[O-] [E, N-dimethyl-N-cetyl-N-hydroxyethyl ammonium phosphate], the “Anticorrosive effect (mpy) cast iron” value [1] was 5.1 mpy, the “Anticorrosive effect (mpy) tinning steel” value [2] was 0.3 mpy and the “Anticorrosive effect (mpy) carbon steel” value [3] was 7.6 mpy. The “Anticorrosive effect (mpy) copper” value [4] was 0.2 mpy.

In the case of CCCCCCCCCCCCCC[N+]1(Cc2ccccc2)CCOCC1.N.O=P([O-])(O)O [example 4, 4-benzyl-4-tetradecyl morpholinium ammonium phosphate], the “Anticorrosive effect (mpy) cast iron” value [1] is reported as 0.8 mpy, the “Anticorrosive effect (mpy) tinning steel” value [2] is reported as 0.1 mpy and the “Anticorrosive effect (mpy) carbon steel” value [3] is reported as 5.1 mpy. For the same compound, the “Anticorrosive effect (mpy) copper” value [4] was 0.1 mpy.
